In PMC4055776:
Construct, isoform or probe ends are uncertain for at least one entry. For part of these data: At least one verdict was read from the data and is not stated in words by the source.

Assays:
[1] = target: apo-locked IscR (IscR-C92A) (Escherichia coli) (UniProt P0AGK8); assay: fluorescence anisotropy; conditions: labeled probe of the competition assay; 40 mM Tris pH 7.9, 150 mM KCl, 100 ng/ul salmon sperm DNA, room temperature, 12 min; 5 nM TAMRA-hya, competitor 8-1000 nM; recombinant protein; residues 1-162; label: 5' TAMRA on top strand
[2] = target: apo-locked IscR (IscR-C92A) (Escherichia coli) (UniProt P0AGK8); assay: fluorescence anisotropy competition; conditions: recombinant protein, residues 1-162

ATAAATCCACACAGTTTGTATTGTTTTGTG (double strand) [TAMRA-hya type 2 site (probe)]
binding result [1]: binds

ATAAATCCACACAGTTTGTATTGTTTTGTG (double strand) [hya type 2 site (unlabeled competitor)]
IC50 ([2]; clusterless IscR, 5 nM TAMRA-hya probe, IscR 59 nM or 90 nM (Methods), 40 mM Tris pH 7.9, 150 mM KCl, 100 ng/ul salmon sperm DNA, room temperature, 12 min, 5 nM TAMRA-hya, competitor 8-1000 nM): 61 nM

TTTAAAACCATATATACAGTATGGTAATTGTATT (double strand) [lcrF (yscW-lcrF promoter type 2 site)]
IC50 [2]: 27 nM
